A mixed list of measured activities; the numbers were collected in NIAID ChemDB.

Shared fields: tests in culture; agent: Mycobacterium tuberculosis

Inhibition is in % at the dose shown (toxicity tests: loss of growth or viability). A number after MIC or MFC names an inhibition level or a share of isolates. ECn is the concentration giving n% inhibition of infection, replication or growth. Two numbers with a dash give a range or band. "inactive" is the filed call at that dose; no cut-off is given. MIC bound comes from a single tested concentration. Blank or dashed fields: not listed here. Conditions beyond the fields shown may differ between rows.

smiles,read-out,dose,conditions,changes,read by,strain,value
O=C(O)c1cccc2c(=O)c3ccccc3oc12,inhibition,16 µg/mL,,,,H37Rv,inactive
CSc1nc2c(c(O)c(C)c(=O)n2C2OC(COC(C)=O)C(OC(C)=O)C(OC(C)=O)C2OC(C)=O)c(=O)n1C,MIC bound,,,,resazurin,H37Rv,>6.25 µg/mL
CN(C)c1ccc(O)c2c1C[C@H]1C[C@H]3[C@H](N(C)C)C(=O)C(C(N)=O)=C(O)[C@@]3(O)C(=O)C1=C2O,MBC,,,,,,>64 µg/mL
Cc1ccc(Oc2cc3nc(C4CCCCC4)[nH]c3cc2NC(=O)c2ccc(C)cc2)cc1,inhibition,1 µg/mL,,,resazurin,H37Rv,36%
O=C1NOCC1NC(=O)C(F)(F)F,MIC,,,,,12PI,25 µg/mL
C=C(C)[C@@H]1CC[C@]2(C(=O)O)CC[C@]3(C)C(CCC4[C@@]5(C)CC[C@H](OC(=O)/C=C/c6ccc(OC(C)=O)c(OC)c6)C(C)(C)C5CC[C@]43C)C12,MIC,,,,resazurin,H37Ra,200 µg/mL
C[C@H]1NCc2cc(-c3ccc4c(=O)c(C(=O)O)cn(C5CC5)c4c3OC(F)F)ccc21,MIC,,,,,3 isolates,2–4 µg/mL
O=C(/N=C/c1ccc(O)cc1)NCCCN1c2ccccc2Sc2ccccc21,inhibition,25 µg/mL,,,agar,H37Rv,28%
CC1(C)CC2(C)OC3(C)CC(C)(C)OC3(C)OC2(C)O1,inhibition,12.5 µg/mL,,,BACTEC,H37Rv,8%
COc1cc(/C=C/C(=O)O[C@H]2CC[C@@]3(C)C(CC[C@]4(C)C3CC=C3C5[C@@H](C)[C@H](C)CC[C@]5(C(=O)O)CC[C@]34C)C2(C)C)ccc1O,MIC,,,,resazurin,H37Ra,3.13 µg/mL
CC(=O)Nc1ccc(S(=O)(=O)N/N=C/c2ccco2)cc1,MIC,,,,BACTEC,H37Rv,≥12.5 µg/mL
COc1cc(C(O)(CCN(C)C)C(c2cc(-c3ccc(Cl)cc3)cnc2OC)c2cccc(OC)c2F)cc(OC)n1,MIC90,,,,resazurin,H37Rv,1.9 µM
O=c1cc(-c2ccc(Oc3c(O)cc4oc(-c5ccc(O)cc5)cc(=O)c4c3O)cc2)oc2cc(O)cc(O)c12,MIC,,,,,,>12.5 µg/mL
O=C(O)c1ccc2c(=O)c3ccccc3oc2c1C(=O)O,inhibition,32 µg/mL,,,,H37Rv,inactive
COc1cc(N=C(N)N)ccc1-c1ccc(-c2ccc(N=C(N)N)cc2OC)o1,MIC,,,,,,12.5 µg/mL
CCCCC(O)CN(/N=C/c1ccc([N+](=O)[O-])o1)C(N)=O,inhibition,12.5 µg/mL,,,BACTEC,H37Rv,6%
O=C(NC1CONC1=O)c1cccc(C(F)(F)F)c1,MIC,,,,,H37Rv,>50 µg/mL
Cc1cc(O)c2c(c1)C(=O)C13C(=C2O)C(=O)C2C(O)C1C1C(O)C3C(=O)C3=C(O)c4c(O)cc(C)cc4C(=O)C321,inhibition,12.5 µg/mL,,,BACTEC,H37Rv,3%
O=C(Oc1cc(Cl)ccc1C(=O)Nc1ccc(Cl)c(Cl)c1)c1ccccc1,MIC100,,14 d,,broth dilution,H37Rv,1 µM
O=C(N=Nc1c(O)[nH]c2ccc(Br)cc12)c1ccncc1,MIC bound,,,,resazurin,H37Rv,>6.25 µg/mL
C[C@@H]1CN(c2c(F)c(N)c3c(=O)c(C(=O)O)cn(C4CC4)c3c2F)C[C@H](C)N1,MIC,,,,,,>0.12 µg/mL
Cc1noc(NS(=O)(=O)c2ccc(NCc3c4ccccc4nc4cc(Cl)ccc34)cc2)c1C,MIC,,,,,H37Rv,>12.5 µg/mL
Cc1ccccc1C1SCC(=O)N1C(=O)NCCCN1c2ccccc2Sc2ccccc21,inhibition,25 µg/mL,,,agar,H37Rv,30%
CN(C)CCC(c1ccc(Cl)cc1)c1ccccn1,MIC,,,,,H37Ra,64 µg/mL
C[C@@H]1CC[C@]2(C(=O)O)CC[C@]3(C)C(=CCC4[C@@]5(C)CC[C@H](OC(=O)/C=C/c6ccccc6)C(C)(C)C5CC[C@]43C)C2[C@H]1C,MIC,,,,resazurin,H37Ra,>200 µg/mL
NC(N)=Nc1ccc(-c2ccc(-c3ccc(N=C(N)N)cc3Cl)o2)c(Cl)c1,inhibition,12.5 µg/mL,,,,,0%
COc1ccc(CCN2C(=O)C(=O)N(c3cccc4c(N5C(=O)C(=O)N(CCc6ccc(OC)c(OC)c6)C5=O)cccc34)C2=O)cc1OC,inhibition,12.5 µg/mL,,,BACTEC,H37Rv,0%
N#Cc1cccc2c(=O)c3ccccc3oc12,inhibition,4 µg/mL,,,,H37Rv,inactive
COc1cc(C(O)(CCN(C)C)C(c2cc(-c3cccc(Cl)c3)cnc2OC)c2cccc(OC)c2F)cc(OC)n1,MIC90,,,,resazurin,H37Rv,8.3 µM
O=C(O)c1cccc2oc3ccccc3c(=O)c12,inhibition,8 µg/mL,,,,H37Rv,inactive
CN[C@@H]1[C@H](O[C@H]2[C@H](O[C@H]3[C@H](O)[C@@H](O)[C@H](N=C(N)N)[C@@H](O)[C@@H]3N=C(N)N)O[C@@H](C)[C@]2(O)C=O)O[C@@H](CO)[C@H](O)[C@H]1O,MIC90,,,Cycloserine-resistant,resazurin / fluorescence,H37Rv,0.41 µg/mL
CC(C1=C(CCN(C)C)Cc2ccccc21)c1ccccn1,MIC,,,,,H37Ra,64 µg/mL
CSc1nc2c(N)ncnc2n1C,MIC bound,,,,BACTEC,H37Rv,>12.5 µg/mL
O=C(NC1CONC1=O)c1ccccc1C(F)(F)F,MIC,,,,,12PI,50 µg/mL
COc1cc([C@](O)(CCN(C)C)[C@@H](c2cc(-c3ccc(OC(F)(F)F)cc3)cnc2OC)c2cccc(OC)c2F)cc(OC)n1,MIC90,,,,resazurin,H37Rv,1.09 µM
O=C(NCCCN1c2ccccc2Sc2ccccc21)N1C(=O)/C(=C\c2ccccc2)SC1c1ccccc1,inhibition,25 µg/mL,,,agar,H37Rv,22%
Nc1n[nH]c(=O)c2cccnc12,inhibition,12.5 µg/mL,,,BACTEC,H37Rv,75%
O=C1CSC(c2ccccc2O)N1C(=O)NCCCN1c2ccccc2Sc2ccccc21,inhibition,50 µg/mL,,,agar,H37Rv,65%
COc1c(N2CCNC(C)C2)c(F)cc2c(=O)c(C(=O)O)cn(C3CC3)c12,MIC90,,,,,,0.25–4 µg/mL
CC(=O)Oc1ccc([C@@H]2CC(=O)c3c(cc(OC(C)=O)c(-c4c(OC(C)=O)cc5c(c4OC(C)=O)C(=O)C[C@@H](c4ccc(OC(C)=O)cc4)O5)c3OC(C)=O)O2)cc1,EC50,,,,,,>12.5 µg/mL
CO/N=C1\CN(c2nc3c(cc2F)c(=O)c(C(=O)O)cn3C2CC2)CC1CN,MIC90,,,,,,8 µg/mL
Cn1c(=O)c2nc(-c3ccccc3)c(-c3ccccc3)nc2n(C)c1=O,MIC bound,,,,BACTEC,H37Rv,>12.5 µg/mL
O=C(NCCCN1c2ccccc2Sc2ccccc21)N1C(=O)/C(=C\c2ccc(Br)cc2)SC1c1ccc(Br)cc1,inhibition,50 µg/mL,,,agar,H37Rv,78%
O=[N+]([O-])c1ccc2nc(-c3ccccn3)[nH]c2c1,inhibition,6.25 µg/mL,,,resazurin,H37Rv,62%
Cc1cc(=O)[nH]c2c1C(=O)c1c(CCCCCCC(C)C)cc(=O)[nH]c1C2=O,MIC90,,,,resazurin / fluorescence,H37Rv,0.04 µg/mL
COS(=O)c1cc(Cl)cc(Cl)c1OC(=O)CSSCC(=O)Oc1c(Cl)cc(Cl)cc1S(=O)OC,MIC bound,,,,resazurin,H37Rv,>6.25 µg/mL
CN1CCCCC(n2nc(Cc3ccc(Cl)cc3)c3ccccc3c2=O)CC1,MIC,,,,,H37Ra,16 µg/mL
O=C(Nc1ccc(Cl)c(Cl)c1)c1ccc(Cl)cc1OS(=O)(=O)c1ccccc1,MIC100,,14 d,,broth dilution,H37Rv,1 µM
COC(=O)c1ccc2oc3ccc([N+](=O)[O-])cc3c(=O)c2c1,inhibition,4 µg/mL,,,,H37Rv,inactive
O=C(Oc1cc(Cl)ccc1C(=O)Nc1ccc(C(F)(F)F)cc1)c1cnccn1,MIC100,,14 d,,broth dilution,H37Rv,0.5 µM
Cc1cc2nc3ccc(O)cc3[n+](C)c2cc1N.[OH-],inhibition,12.5 µg/mL,,,BACTEC,H37Rv,50%
Cc1cccc(/C=N/C(=O)NCCCN2c3ccccc3Sc3ccccc32)c1,inhibition,50 µg/mL,,,agar,H37Rv,35%
C[C@@H]1CN(c2c(F)c(N)c3c(=O)c(C(=O)O)cn(C4CC4)c3c2F)C[C@H](C)N1,EC50,,,,,TN1625 (A90V),0.34 µg/mL
CC(C)C1OC(=O)/C=C/C=C/C=C/C=C/C=C/CC(O)C(C)C(O)CC(O)CC(O)CC(O)CC(O)CC(O)CC(O)/C=C/C1C,MIC bound,,,,BACTEC,H37Rv,>12.5 µg/mL
O=C(NCCCN1c2ccccc2Sc2ccccc21)N1C(=O)/C(=C\c2ccccc2Br)SC1c1ccccc1Br,inhibition,50 µg/mL,,,agar,H37Rv,76%
Cc1cc(N=C(N)N)ccc1-c1ccc(-c2ccc(N=C(N)N)cc2C)o1,MIC,,,,,,>12.5 µg/mL
O=S(=O)(O)c1cccc(/C(=N/Nc2ccccn2)c2ccccn2)c1,MIC bound,,,,BACTEC,H37Rv,>12.5 µg/mL
CN1CCC(=C2C3=C(CCc4ccccc42)SCC3)CC1,MIC,,,,,H37Ra,16 µg/mL
NC[C@H]1O[C@H](O[C@H]2[C@H](O)[C@@H](O[C@H]3O[C@H](CO)[C@@H](O)[C@H](N)[C@H]3O)[C@H](N)C[C@@H]2N)[C@H](O)[C@@H](O)[C@@H]1O,MIC90,,,Rifampicin-resistant,resazurin / fluorescence,H37Rv,0.92 µg/mL
O=C(C[n+]1cccc(C(=O)Nc2ccccc2)c1)Nc1ccc(Cl)cc1.[Cl-],MIC bound,,,,BACTEC,H37Rv,>12.5 µg/mL
CN1CCC(=C2c3ccccc3C=Cc3cccnc32)CC1,MIC,,,,,H37Ra,256 µg/mL
COc1ccccc1-n1sc(=NOC(=O)c2sc3ccccc3c2Cl)sc1=S,inhibition,6.25 µg/mL,,,resazurin,H37Rv,33%
O=C1C[C@@H](c2ccc(O)cc2)Oc2c1c(O)cc(O[C@@H]1O[C@H](CO)[C@@H](O)[C@H](O)[C@H]1O)c2[C@H]1C(=O)c2c(O)cc(O)cc2O[C@@H]1c1ccc(O)cc1,MIC,,,,,,>12.5 µg/mL
CC(=O)NS(=O)(=O)c1ccc(NC(=O)c2ccccc2C(=O)O)cc1,inhibition,128 µg/mL,,,BACTEC,H37Rv,54%
CC(=O)N[C@@H](Cc1ccccc1)C(=O)Oc1cc(Br)ccc1C(=O)Nc1ccc(C(F)(F)F)cc1,MIC100,,14 d,,broth dilution,H37Rv,0.25 µM
O=c1cc(-c2cccc(-c3cccc4c(=O)cc(-c5ccccc5)oc34)c2)oc2ccccc12,MIC,,,,,,>12.5 µg/mL
CCC1CN(c2cc3c(cc2F)c(=O)c(C(=O)O)cn3C2CC2)CCN1,MIC,,,,,TN565 (D94H),5 µg/mL
Nc1ncnc2c1S(=O)(=O)NCN2,MIC bound,,,,BACTEC,H37Rv,>12.5 µg/mL
CO[C@H]1/C=C/O[C@@]2(C)Oc3c(C)c(O)c4c(O)c(c(/C=N/N5CCN(C/C=C/c6ccccc6)CC5)c(O)c4c3C2=O)NC(=O)/C(C)=C\C=C\[C@H](C)[C@H](O)[C@@H](C)[C@@H](O)[C@@H](C)[C@H](OC(C)=O)[C@@H]1C,MBC,,,,,2912 (rifampin-sensitive),0.1 µg/mL
Cc1ccc(Oc2cc3nc(C4CCCCC4)[nH]c3cc2NC(=O)c2ccc(F)cc2F)cc1,inhibition,1 µg/mL,,,resazurin,H37Rv,44%
CO[C@H]1/C=C/O[C@@]2(C)Oc3c(C)c(O)c4c(O)c(c(/C=N/N5CCN(C)CC5)c(O)c4c3C2=O)NC(=O)/C(C)=C\C=C\[C@H](C)[C@H](O)[C@@H](C)[C@@H](O)[C@@H](C)[C@H](OC(C)=O)[C@@H]1C,MBC,,,,,,0.5 µg/mL
COc1cc([C@@](O)(CCN(C)C)[C@H](c2cc(-c3ccc(C#N)cc3)cnc2OC)c2cccc(OC)c2F)cc(OC)n1,MIC90,,,,resazurin,H37Rv,>10 µM
O=C(Oc1cc(Cl)ccc1C(=O)Nc1ccc(C(F)(F)F)cc1)c1ccccc1,MIC100,,14 d,,broth dilution,H37Rv,0.5 µM
Cc1c(F)c(N2CCNC(C)C2)cc2c1c(=O)c(C(=O)O)cn2C1CC1,MIC90,,,,,,1 µg/mL
CO[C@H]1/C=C/O[C@@]2(C)Oc3c(C)c(O)c4c(O)c(c5c(c4c3C2=O)NC2(CCN(CC(C)C)CC2)N=5)=NC(=O)/C(C)=C\C=C\[C@H](C)[C@H](O)[C@@H](C)[C@@H](O)[C@@H](C)[C@H](OC(C)=O)[C@@H]1C,MIC,,,,,2831 (rifampin-sensitive),0.025 µg/mL
CN(C)CCOC(C)(c1ccccc1)c1ccc(Cl)cc1,MIC,,,,,H37Rv,32 µg/mL
Cc1c([N+](=O)[O-])ccc2oc3ccccc3c(=O)c12,inhibition,4 µg/mL,,,,H37Rv,inactive
CCC1CN(c2c(F)cc3c(=O)c(C(=O)O)cn(C4CC4)c3c2OC)CCN1,MIC,,,,,TN1626 (WILD TYPE),0.3 µg/mL
C[C@@H]1CC[C@]2(C(=O)O)CC[C@]3(C)C(=CCC4[C@@]5(C)CC[C@H](OC(=O)/C=C/c6ccc(O)c(O)c6)C(C)(C)C5CC[C@]43C)C2[C@H]1C,MIC,,,,resazurin,H37Ra,200 µg/mL